Results published in paper PMC6608616, “Conservation of the structure and function of bacterial tryptophan synthases” (2019).

Protein sequences, listed by entry. Tags and fused reporters are not part of them. Lines headed by an entry give the natural chain unless they say otherwise; changes in a name come on top. Residues count along the entry.
UniProt P9WFX9: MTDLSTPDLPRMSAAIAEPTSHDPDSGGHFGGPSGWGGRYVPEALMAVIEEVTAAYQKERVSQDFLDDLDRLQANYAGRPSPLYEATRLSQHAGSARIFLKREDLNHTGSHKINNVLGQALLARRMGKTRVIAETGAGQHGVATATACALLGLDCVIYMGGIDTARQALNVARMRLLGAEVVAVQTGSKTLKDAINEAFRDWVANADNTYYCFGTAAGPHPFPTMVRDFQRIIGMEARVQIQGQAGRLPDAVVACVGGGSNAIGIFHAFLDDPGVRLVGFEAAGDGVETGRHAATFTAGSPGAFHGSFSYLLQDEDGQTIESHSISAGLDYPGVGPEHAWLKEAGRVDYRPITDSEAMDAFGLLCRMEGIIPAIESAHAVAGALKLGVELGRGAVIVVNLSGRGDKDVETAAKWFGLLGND
UniProt P9WFY1: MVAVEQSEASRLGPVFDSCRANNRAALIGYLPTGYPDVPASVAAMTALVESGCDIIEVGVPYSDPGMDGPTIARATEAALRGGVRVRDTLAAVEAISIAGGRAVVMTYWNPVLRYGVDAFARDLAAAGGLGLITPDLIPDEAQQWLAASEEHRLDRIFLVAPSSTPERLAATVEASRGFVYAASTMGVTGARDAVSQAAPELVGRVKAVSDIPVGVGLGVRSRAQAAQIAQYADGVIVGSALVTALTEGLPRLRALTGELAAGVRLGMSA
UniProt Q97P32, 4-407 limits assumed: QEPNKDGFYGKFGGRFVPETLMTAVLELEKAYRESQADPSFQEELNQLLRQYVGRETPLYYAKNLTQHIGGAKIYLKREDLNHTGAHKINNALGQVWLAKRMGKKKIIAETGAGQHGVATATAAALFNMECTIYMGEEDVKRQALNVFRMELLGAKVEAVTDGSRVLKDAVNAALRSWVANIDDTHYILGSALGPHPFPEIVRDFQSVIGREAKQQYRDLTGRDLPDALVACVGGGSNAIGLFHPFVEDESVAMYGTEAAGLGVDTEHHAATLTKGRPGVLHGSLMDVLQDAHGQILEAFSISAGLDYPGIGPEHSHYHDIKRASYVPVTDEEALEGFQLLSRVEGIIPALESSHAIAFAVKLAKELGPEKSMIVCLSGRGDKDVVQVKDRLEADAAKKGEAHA
UniProt Q97P33: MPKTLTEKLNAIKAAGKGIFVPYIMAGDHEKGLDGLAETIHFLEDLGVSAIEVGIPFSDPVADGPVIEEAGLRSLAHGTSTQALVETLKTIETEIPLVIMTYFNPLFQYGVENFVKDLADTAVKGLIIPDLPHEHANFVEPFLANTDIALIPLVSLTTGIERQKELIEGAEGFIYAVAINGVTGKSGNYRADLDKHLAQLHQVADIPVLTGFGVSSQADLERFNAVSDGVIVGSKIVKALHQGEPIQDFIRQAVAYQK
UniProt Q5ZVY3: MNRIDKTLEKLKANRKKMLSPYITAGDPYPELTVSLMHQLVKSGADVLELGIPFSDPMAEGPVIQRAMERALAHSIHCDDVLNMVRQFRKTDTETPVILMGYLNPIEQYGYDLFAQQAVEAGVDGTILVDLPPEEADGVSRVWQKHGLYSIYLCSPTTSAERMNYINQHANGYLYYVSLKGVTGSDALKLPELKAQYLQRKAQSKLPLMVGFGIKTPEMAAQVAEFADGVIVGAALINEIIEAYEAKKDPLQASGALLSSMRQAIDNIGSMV
UniProt Q5ZVY4, 13-396 limits assumed: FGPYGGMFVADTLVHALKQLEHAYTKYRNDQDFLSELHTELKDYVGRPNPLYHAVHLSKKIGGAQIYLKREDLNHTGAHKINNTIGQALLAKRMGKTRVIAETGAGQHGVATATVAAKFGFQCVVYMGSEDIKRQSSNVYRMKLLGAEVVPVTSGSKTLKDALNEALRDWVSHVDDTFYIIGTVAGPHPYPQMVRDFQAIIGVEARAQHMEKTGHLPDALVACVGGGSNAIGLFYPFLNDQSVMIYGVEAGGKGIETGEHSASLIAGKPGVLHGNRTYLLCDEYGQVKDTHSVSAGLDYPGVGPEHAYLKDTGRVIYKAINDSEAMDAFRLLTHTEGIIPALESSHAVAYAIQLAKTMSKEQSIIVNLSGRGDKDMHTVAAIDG
UniProt Q5NE79: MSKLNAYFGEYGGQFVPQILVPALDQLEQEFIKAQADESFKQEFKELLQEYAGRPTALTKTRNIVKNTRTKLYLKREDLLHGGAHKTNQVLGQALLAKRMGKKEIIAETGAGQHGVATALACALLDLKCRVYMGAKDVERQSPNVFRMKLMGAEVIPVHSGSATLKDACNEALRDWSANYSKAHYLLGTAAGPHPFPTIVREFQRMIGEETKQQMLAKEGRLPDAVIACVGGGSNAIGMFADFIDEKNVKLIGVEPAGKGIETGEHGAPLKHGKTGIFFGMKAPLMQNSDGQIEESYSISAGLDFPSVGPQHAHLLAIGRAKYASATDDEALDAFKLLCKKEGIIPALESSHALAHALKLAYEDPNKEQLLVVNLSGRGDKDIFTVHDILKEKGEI
UniProt Q5NE80: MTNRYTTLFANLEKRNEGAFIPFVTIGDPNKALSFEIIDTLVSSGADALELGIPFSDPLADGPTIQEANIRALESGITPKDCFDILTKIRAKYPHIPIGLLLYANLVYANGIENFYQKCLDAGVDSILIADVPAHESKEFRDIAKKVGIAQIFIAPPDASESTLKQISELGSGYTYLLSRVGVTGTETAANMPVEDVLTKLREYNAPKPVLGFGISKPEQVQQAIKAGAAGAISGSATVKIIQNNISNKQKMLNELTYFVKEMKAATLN

How the values were obtained:
StTrpAB = settings: previously characterized, ref Raboni et al., 2007; cited from earlier work
MtTrpAB = MtTrpAB (Mycobacterium tuberculosis, UniProt P9WFX9+P9WFY1); settings: previously characterized, ref Wellington et al., 2017; cited from earlier work
SpTrpAB = SpTrpAB (Streptococcus pneumoniae serotype 4, UniProt Q97P32+Q97P33); experiment: LC-MS assay, inhibition of the β reaction (indole + L-Ser to L-Trp); settings: 100 nM SpTrpAB; for effect on the β reaction of SpTrpAB (in words): substrate Km conditions, compound 0 to 200 µM
LpPhTrpAB = LpPhTrpAB (Legionella pneumophila subsp. pneumophila, UniProt Q5ZVY3+Q5ZVY4); experiment: as above; settings: substrate Km conditions, 600 nM LpPhTrpAB, compound 0 to 200 µM
FtTrpAB = FtTrpAB (Francisella tularensis subsp. tularensis, UniProt Q5NE79+Q5NE80); experiment: as above; settings: 5 nM FtTrpAB; for IC50: read-out: IC^β 50, β reaction, substrate Km conditions (10 µM indole, 20 mM L-Ser)

Structure (SMILES)	K m for serine (StTrpAB) [µM]	K m for serine (MtTrpAB) [µM]	effect on the β reaction of SpTrpAB (in words) (SpTrpAB)	effect on the β reaction of LpPhTrpAB (in words) (LpPhTrpAB)	IC50 (FtTrpAB) [nM]	IC50 (SpTrpAB; read-out: IC^β 50, β reaction, substrate Km conditions (10 µM indole, 20 mM L-Ser)) [nM]	effect on the β reaction of FtTrpAB (in words) (FtTrpAB; substrate Km conditions, compound 0 to 200 µM)
N[C@@H](CO)C(=O)O	580	4400					
O=P(O)(O)OCCCc1c[nH]c2ccccc12			inhibition was only observed for the FtTrpAB enzyme	inhibition was only observed for the FtTrpAB enzyme	80		
O=C(NCCOP(=O)(O)O)c1ccc(OC(F)(F)F)cc1			inhibition was only observed for the FtTrpAB enzyme	inhibition was only observed for the FtTrpAB enzyme	1460		
N#CC1NC(CO)C1c1ccc(-c2ccccc2F)cc1 (stereo not drawn)			slightly inhibited	slightly inhibited		21000	slightly inhibited
O=P(O)(O)OCCNS(=O)(=O)c1ccc(OC(F)(F)F)cc1			activator	only slightly inhibiting	114		
